Measured values from several laboratories, pooled; numbers as filed in NIAID ChemDB.

Common to all: tests in culture; organism: Respiratory syncytial virus; cells: HeLa; measure: EC50

An empty or dashed field is not shown. ECn: concentration that inhibits the pathogen or its effect by n%. Rows are shuffled and stem from different studies.

CC=NC(=N)c1nc(-c2ccc(OC)cc2)n(C/C=C/c2ccccc2)n1 ; strain or isolate: LONG ; method: cytopathic effect ; result: ≥100 µg/mL
COc1cc(Cc2cnc(-n3c(-c4ccccc4)nc4ccc(Br)cc4c3=O)nc2N)cc(OC)c1OC ; method: cytopathic effect ; result: >16 µg/mL
CCOC(=O)Sc1nnc(-c2cn(-c3ccccc3)nc2-c2ccccc2)n1N ; method: cytopathic effect ; result: >80 µg/mL
COCCCNc1nc2c(C)cc(C)cc2n1Cc1nc(C)ccc1O ; method: cytopathic effect ; result: 100 µM
[N-]=[N+]=NC(CBr)c1cc([C@H]2C[C@H](O)[C@@H](CO)O2)c(F)cc1F ; method: cytopathic effect ; result: ≥400 µg/mL
Cc1cc(C)c2nc(Nc3ccc(N)cc3)n(Cc3nc(C)ccc3O)c2c1 ; method: cytopathic effect ; result: 100 µM
CC(C)CS[C@@H]1C=C[C@H](n2cnc3c(N)ncnc32)C1 ; method: cytopathic effect ; result: >3.2 µg/mL
Cc1cc(C)c2nc(NCc3ccccn3)n(Cc3nc(C)ccc3O)c2c1 ; method: cytopathic effect ; result: 1.585 µM
CC=NC(=N)c1nc(-c2ccccc2)n(C/C=C/c2ccccc2)n1 ; strain or isolate: LONG ; method: cytopathic effect ; result: >20 µg/mL
CC1(CO)CCC(Cn2nnc3c(=O)[nH]c(N)nc32)C1(C)C ; method: cytopathic effect ; result: >400 µg/mL
O=C(NC1CC1)c1cc2c(s1)-c1ccccc1N(C(=O)c1ccc(NC(=O)c3ccccc3-c3ccccc3)cc1)CC2 ; strain or isolate: YM-53403-R01 Y1631H mutation ; method: plaque count ; result: >25 µM
Cc1cc(C)c2nc(NCCN3CCCCC3)n(Cc3nc(C)ccc3O)c2c1 ; method: cytopathic effect ; result: 0.063 µM
CC1(CO)CCC(Cn2nnc3c(N)nc(N)nc32)C1(C)C ; method: cytopathic effect ; result: >400 µg/mL
CCOC(=O)c1ccc(OC(=O)CCCCCN=C(N)N)cc1.COS(=O)(=O)O ; strain or isolate: LONG ; method: cytopathic effect ; result: >120 µg/mL
COC(=O)COCCN1CCC(Nc2nc3c(C)cccc3n2Cc2nc(C)ccc2O)CC1 ; method: cytopathic effect ; result: 1.259 µM
CC1(C)[C@@H](CCO)C[C@H]1n1nnc2c(N)nc(N)nc21 ; method: cytopathic effect ; result: >400 µg/mL
CC(=O)Nn1c(-c2cn(-c3ccccc3)nc2-c2ccccc2)n[nH]c1=S ; method: cytopathic effect ; result: >80 µg/mL
COC(=O)Nc1nc2c3c(ccc2[nH]1)[C@@]1(C)CCC[C@@](C)(C(=O)OC)C1CC3 ; method: plaque count ; result: >4 µg/mL
CC1(CO)CCC(Cn2cnc3c(=O)[nH]cnc32)C1(C)C ; method: cytopathic effect ; result: >100 µg/mL
CCC(CO)N1CCC(Nc2nc3c(C)cccc3n2Cc2nc(C)ccc2O)CC1 ; method: cytopathic effect ; result: 0.063 µM
Cc1cc(C)c2nc(NCCCN3CCCC3=O)n(Cc3nc(C)ccc3O)c2c1 ; method: cytopathic effect ; result: 100 µM
Cc1ccc(O)c(Cn2c(NC3CCN(CCN4CC=CC4)CC3)nc3c(C)cccc32)n1 ; method: cytopathic effect ; result: 0.04 µM
CC1(CO)CCC(Cn2cnc3c(Cl)nc(N)nc32)C1(C)C ; method: cytopathic effect ; result: >200 µg/mL
CCOC(=O)C1=CSc2nnc(-c3cn(-c4ccccc4)nc3-c3ccccc3)n2N=C1N ; method: cytopathic effect ; result: >16 µg/mL
OC[C@H]1CC(n2cnc3c(NC4CC4)ncnc32)C[C@@H]1CO ; result: >100 µg/mL
O=c1[nH]n2c(-c3cn(-c4ccccc4)nc3-c3ccccc3)nnc2s1 ; method: cytopathic effect ; result: >16 µg/mL
CCCCCCCCCCCCCCCCO[C@H]1N([C@H]2C[C@H](N=[N+]=[N-])[C@@H](CO)O2)C(=O)NC(=O)[C@]1(C)Br ; strain or isolate: LONG ; method: cytopathic effect ; result: >500 µg/mL
Cc1cc(C)c2nc(Nc3ccc(C#N)cc3)n(Cc3nc(C)ccc3O)c2c1 ; method: cytopathic effect ; result: 100 µM
CCOc1cc(O)c(C(=O)/C=C/c2ccc(OC)cc2)c(OC)c1 ; method: cytopathic effect ; result: >3 µg/mL
COC(=O)[C@]1(C)CCC[C@]2(C)c3cc(Br)c4nc(C)[nH]c4c3CCC12 ; method: plaque count ; result: >4 µg/mL
S=c1[nH]nc(-c2cn(-c3ccccc3)nc2-c2ccccc2)o1 ; method: cytopathic effect ; result: >16 µg/mL
Nc1ccn([C@@H]2C[C@H](CO)[C@@H](O)[C@H]2O)c(=O)n1 ; strain or isolate: LONG ; method: cytopathic effect ; result: >70 µg/mL
CC1(CO)CCC(Cn2nnc3c(N)ncnc32)C1(C)C ; method: cytopathic effect ; result: >40 µg/mL
CC=NC(=N)c1nc(-c2ccccc2)n(COCCO)n1 ; strain or isolate: LONG ; method: cytopathic effect ; result: >100 µg/mL
COc1cc(Cc2cnc(-n3c(C)nc4ccc(Br)cc4c3=O)nc2N)cc(OC)c1OC ; method: cytopathic effect ; result: >80 µg/mL
CC1(CO)CCC(Cn2ccc(=O)[nH]c2=O)C1(C)C ; method: cytopathic effect ; result: >200 µg/mL
CC1(C)[C@@H](CCO)C[C@H]1n1cnc2c(=O)[nH]c(N)nc21 ; method: cytopathic effect ; result: >400 µg/mL
COC(=O)[C@]1(C)CCC[C@]2(C)c3ccc4[nH]cnc4c3CCC12 ; method: plaque count ; result: >4 µg/mL
Cc1ccc(O)c(Cn2c(NC3CCN(CC(=O)O)CC3)nc3c(C)cccc32)n1 ; method: cytopathic effect ; result: 6.31 µM
COS(=O)(=O)O.N=C(N)c1ccc2cc(OC(=O)c3ccc(N=C(N)N)cc3)ccc2c1 ; strain or isolate: LONG ; method: cytopathic effect ; result: >36 µg/mL
Cc1ccc(O)c(Cn2c(NC3CCN(CC(O)CCn4cnnc4)CC3)nc3c(C)cccc32)n1 ; method: cytopathic effect ; result: 0.398 µM
CC1(C)[C@@H](CCO)C[C@H]1n1cnc2c(N)nc(N)nc21 ; method: cytopathic effect ; result: >400 µg/mL
C=C(N=CC)c1nc(-c2ccc(C)cc2)n(C2O[C@H](CO)[C@@H](O)[C@H](O)[C@H]2O)n1 ; strain or isolate: LONG ; method: cytopathic effect ; result: 100 µg/mL
CC(C)Nc1ncnc2c1ncn2C1C[C@H](CO)[C@@H](CO)C1 ; result: >100 µg/mL
COC(=O)[C@]1(C)CCC[C@]2(C)c3cc(Br)c4nc[nH]c4c3CCC12 ; method: plaque count ; result: >4 µg/mL
CCc1nc(-n2c(C)nc3ccc(Br)cc3c2=O)nc(N)c1-c1ccc(Cl)cc1 ; method: cytopathic effect ; result: >16 µg/mL
Cc1cccc(CCNc2nc3ccccc3n2Cc2nc(C)ccc2O)c1 ; method: cytopathic effect ; result: 100 µM
O=c1[nH]c(=O)n(C2C[C@H](CO)[C@@H](CO)C2)cc1I ; result: >100 µg/mL
Cc1ccc(O)c(Cn2c(NC3CCN(CCN4CC=CCC4)CC3)nc3c(C)cccc32)n1 ; method: cytopathic effect ; result: 0.016 µM
Cc1ccc(O)c(Cn2c(NCCc3ccccn3)nc3ccccc32)n1 ; method: cytopathic effect ; result: 50.1 µM

Again, the opening 6 rows:

smiles	strain or isolate	method	result
CC=NC(=N)c1nc(-c2ccc(OC)cc2)n(C/C=C/c2ccccc2)n1	LONG	cytopathic effect	≥100 µg/mL
COc1cc(Cc2cnc(-n3c(-c4ccccc4)nc4ccc(Br)cc4c3=O)nc2N)cc(OC)c1OC	-	cytopathic effect	>16 µg/mL
CCOC(=O)Sc1nnc(-c2cn(-c3ccccc3)nc2-c2ccccc2)n1N	-	cytopathic effect	>80 µg/mL
COCCCNc1nc2c(C)cc(C)cc2n1Cc1nc(C)ccc1O	-	cytopathic effect	100 µM
[N-]=[N+]=NC(CBr)c1cc([C@H]2C[C@H](O)[C@@H](CO)O2)c(F)cc1F	-	cytopathic effect	≥400 µg/mL
Cc1cc(C)c2nc(Nc3ccc(N)cc3)n(Cc3nc(C)ccc3O)c2c1	-	cytopathic effect	100 µM